Measured values from several laboratories, pooled; numbers as filed in NIAID ChemDB.

All rows: tests on isolated targets; species: HIV-1; protein: Reverse transcriptase

Neighbouring rows are from separate reports. a–b is a range or a potency band. Blank or dashed fields: not listed here. ICn: concentration for n% inhibition.

compound	strain	read-out	read by	mutations	value
CCN1c2ncc(CCOc3ccc(-c4cn(C)cn4)cc3C)cc2C(=O)N(C)c2cccnc21	IIIB	IC50	nucleotide incorporation / radiometric	RT-K103N Y181C	<0.05 µM
Cc1nnc2c3c(c(N4CCc5ccccc5C4)nn12)C1CCC3CC1	98US_MSC5016	IC50	RT activity / fluorescence		5.98 µM
CCN1c2ncc(CCOc3ccc(C(=O)O)c4c3CCCC4)cc2C(=O)N(C)c2ccc(Cl)nc21		IC50	nucleotide incorporation / radiometric	RT-Y188L	0.1–1 µM
C=CC#Cc1ccc(NC(=O)CSc2nnnn2-c2ccc(C3CC3)cc2Cl)c(Cl)c1		IC50	PicoGreen / fluorescence	RT-K103 Y181C	<1 µM
CN(C)c1ccc2c(c1)CN(c1nn3c(C4CC4)nnc3c3ccccc13)CC2	IIIB	IC50	RT activity / fluorescence		0.06 µM
CCN1c2ncc(CCOc3ccc(-c4ccc[n+]([O-])c4C)cc3C)cc2C(=O)N(C)c2cccnc21	IIIB	IC50	nucleotide incorporation / radiometric		<0.05 µM
O=C(CSc1nnnn1-c1ccc(C2CC2)cc1Cl)Nc1ccc(C#CC2(CO)CC2)cc1Cl		IC50	PicoGreen / fluorescence	RT-K103 Y181C	<1 µM
CCN1c2ncc(CCOc3ccc(NC(=O)C4CC4C(=O)O)cc3C)cc2C(=O)N(C)c2cccnc21	IIIB	IC50	nucleotide incorporation / radiometric	RT-K103N Y181C	>0.1 µM
Cc1nnc2c3ccccc3c(N3CCc4ncccc4C3)nn12	98US_MSC5016	IC90	RT activity / fluorescence		3.06 µM
CCN1c2ncc(CCOc3ccc(-c4cc(C)nc(C)c4)cc3C)cc2C(=O)N(C)c2cccnc21	IIIB	IC50	nucleotide incorporation / radiometric	RT-K103N Y181C	<0.05 µM
CCN1c2ncc(CCOc3ccc(CC(=O)NN)c4ccccc34)cc2C(=O)N(C)c2ccc(Cl)nc21		IC50	nucleotide incorporation / radiometric	RT-K103N Y181C	<0.1 µM
CC(C)(C#Cc1ccc(NC(=O)CSc2nnnn2-c2cc(C(F)(F)F)cc(C3CC3)c2Cl)c(Cl)c1)OCCN1CCC(F)(F)C1	WT	IC50	PicoGreen / fluorescence		<1 µM
CCN1c2ncc(CCOc3ccc(-c4ccc(C(=O)O)s4)cc3C)cc2C(=O)N(C)c2cccnc21	IIIB	IC50	nucleotide incorporation / radiometric	RT-K103N Y181C	<0.05 µM
CN(C)CCCC(=O)NC(C)(C)C#Cc1ccc(NC(=O)CSc2nnnn2-c2cc(C(F)(F)F)ccc2Cl)c(Cl)c1F		IC50	PicoGreen / fluorescence	RT-K103 Y181C	<1 µM
CCN1c2ncc(CCOc3ccc(C(=O)N4CCC(C(=O)O)CC4)cc3C)cc2C(=O)N(C)c2cccnc21	IIIB	IC50	nucleotide incorporation / radiometric		<0.05 µM
CCNC(=O)N1CCc2c(OCCc3cnc4c(c3)C(=O)N(C)c3cccnc3N4CC)ccc(C(=O)O)c2C1		IC50	nucleotide incorporation / radiometric	RT-K103N Y181C	0.1–1 µM
CC(C)(N)C#Cc1ccc(NC(=O)CSc2nnnn2-c2ccc(C3CC3)cc2Cl)c(Cl)c1F	WT	IC50	PicoGreen / fluorescence		<1 µM
CCN1c2ncc(CCOc3ccc(CC(=O)O)c4ccccc34)cc2C(=O)Nc2c(C)cc(F)nc21		IC50	nucleotide incorporation / radiometric	RT-V106A	0.1–1 µM
O=C(COc1ccc(NC(=O)CSc2nnnn2-c2ccc(C3CC3)cc2Cl)c(Cl)c1)NCCc1cccnc1		IC50	PicoGreen / fluorescence	RT-K103 Y181C	<1 µM
CCN1c2ncc(CCOc3ccc(S(=O)(=O)Nc4ccc(C(=O)O)cc4)cc3C)cc2C(=O)N(C)c2cccnc21	IIIB	IC50	nucleotide incorporation / radiometric	RT-K103N Y181C	<0.05 µM
CC(C)(C)c1ccc(-n2nnnc2SCC(=O)Nc2ccc(NC(=O)Cc3c(Cl)cccc3Cl)cc2Cl)c(Cl)c1		IC50	PicoGreen / fluorescence	RT-K103 Y181C	<1 µM
Nc1ccc2c(c1)CN(c1nn3c(-c4cccs4)nnc3c3ccccc13)CC2	IIIB	IC90	RT activity / fluorescence		12.5 µM
CC(C)(C)c1ccc(-n2nnnc2SCC(=O)Nc2ccc(NC(=O)c3cccc(C(=O)O)c3)cc2Cl)c(Cl)c1		IC50	PicoGreen / fluorescence	RT-K103 Y181C	<1 µM
CCN1c2ncc(CCOc3ccc(CC(C)C(=O)O)c4ccccc34)cc2C(=O)N(C)c2ccc(Cl)nc21	WT	IC50	nucleotide incorporation / radiometric		<0.1 µM
CCN1c2ncc(CCOc3ccc(-c4ccc(C(=O)O)cc4)cc3)cc2C(=O)N(C)c2cccnc21	IIIB	IC50	nucleotide incorporation / radiometric	RT-K103N Y181C	0.05–0.1 µM
CC(C)(C)c1cc(Cl)c(-n2nnnc2SCC(=O)Nc2ccc(-c3ccc(OCC(=O)O)cc3)cc2Cl)c(Cl)c1		IC50	PicoGreen / fluorescence	RT-K103 Y181C	<1 µM
CCN1c2ncc(CCOc3ccc(C(=O)O)c4ccccc34)cc2C(=O)N(C)c2ccc(F)nc21	WT	IC50	nucleotide incorporation / radiometric		<0.1 µM